A mixed list of measured activities; the numbers were collected in NIAID ChemDB.

Common to all: tests in culture; species: Vaccinia virus

ECn is the concentration giving n% inhibition of infection, replication or growth.

structure,read-out,cell line,value
Nc1ncnc2c1ncn2[C@@H]1C=C(CO)[C@@H](O)[C@H]1O,EC50,ESM,0.2 µg/mL
OC[C@H]1O[C@@H](c2cc(C(F)(F)F)c(F)cc2F)C[C@@H]1O,EC50,E6SM,>400 µg/mL
CO[C@H]1/C=C/O[C@@]2(C)Oc3c(C)c(O)c4c(O)c(c(/C=N/NC(=O)CN5CCN(c6ccc([N+](=O)[O-])cc6)CC5)c(O)c4c3C2=O)NC(=O)/C(C)=C\C=C\[C@H](C)[C@H](O)[C@@H](C)[C@@H](O)[C@@H](C)[C@H](OC(C)=O)[C@@H]1C,EC50,L929,>50 µg/mL
OC[C@H]1O[C@@H](c2ccc(F)cc2F)C[C@@H]1O,EC50,E6SM,>400 µg/mL
CC1(C)[C@@H](CCO)C[C@H]1n1cnc2c(N)nc(N)nc21,EC50,E6SM,200 µg/mL
Nc1ncnc2c1ncn2[C@@H]1C=C(CF)[C@H](O)[C@H]1O,EC50,PRK,2 µg/mL
Nc1ncc2ncn(C[C@@H](CF)OCP(=O)(O)O)c2n1,EC50,E6SM,>600 µM
CCn1nc(Cc2n[nH]c(=S)o2)nc1C,MIC,,>400 µg/mL
O=c1[nH]c(=O)n([C@H]2C[C@H](O)[C@@H](COP(=O)([O-])OP(=O)([O-])OC[C@@H]3OC(O)[C@H](O)[C@H](O)[C@H]3O)O2)cc1I,EC50,PRK,0.4 µg/mL
Nc1ncnc2c1ncn2C1CC(COP(=O)(O)O)[C@@H](O)[C@H]1O,EC50,PRK,2 µg/mL
Nc1nc2c(ncn2[C@H]2CO[C@@H](CO)C2)c(=O)[nH]1,EC50,E6SM,>400 µg/mL
Nc1ncnc2c1ncn2[C@H]1C[C@@H](O)[C@H](O)[C@@H]1O,EC50,E6SM,0.7 µg/mL
O=C(CC1CCCCC1)N(O)c1ccc(Cl)cc1,EC50,E6SM,>80 µg/mL
Nc1ncnc2c1ncn2[C@@H]1O[C@@H](CO)[C@H](O)[C@H]1O,EC50,VERO B,>1000 µM
C=CCc1nc(C)n2c(=O)[nH]c(NC(C)=O)nc12,EC50,PRK,>200 µg/mL
O=c1ccn([C@H]2C[C@@H](O)[C@H](CO)O2)c(=O)[nH]1,EC50,VERO B,>100 µM
Nc1nc2c(ncn2C[C@H](CF)OCP(=O)(O)O)c(=O)[nH]1,EC50,E6SM,218 µM
Cc1nc(Cc2n[nH]c(=S)n2-c2ccccc2)nn1C,MIC,,400 µg/mL
C[C@H](Cn1cnc2c(=O)[nH]c(N)nc21)OCP(=O)(O)O,EC50,E6SM,495 µM
CC1(C)[C@@H](CCO)C[C@H]1n1nnc2c(Cl)nc(N)nc21,EC50,E6SM,>100 µg/mL
CCn1nc(CC(=O)NN=C(C)C)nc1C,MIC,,>400 µg/mL
CSCc1cn([C@H]2C[C@H](O)[C@@H](CO)O2)c(=O)[nH]c1=O,EC50,PRK,7 µg/mL
CO[C@H]1/C=C/O[C@@]2(C)Oc3c(C)c(O)c4c(O)c(c(/C=N/NC(=O)CN5CCN(c6ccc(F)cc6)CC5)c(O)c4c3C2=O)NC(=O)/C(C)=C\C=C\[C@H](C)[C@H](O)[C@@H](C)[C@@H](O)[C@@H](C)[C@H](OC(C)=O)[C@@H]1C,EC50,L929,>50 µg/mL
NNC(=O)Cc1nc2n(n1)CCCCC2,MIC,,>400 µg/mL
CC1(C)[C@@H](CCO)C[C@H]1n1nnc2c(=O)[nH]c(N)nc21,EC50,E6SM,200 µg/mL
Nc1ncnc2c1ncn2[C@@H]1O[C@H](COP(=O)(O)O[C@@H]2[C@H](O)[C@@H](COP(=O)(O)O[C@@H]3[C@H](O)[C@@H](COP(=O)(O)OP(=O)(O)OC[C@@H]4OC(O)[C@H](O)[C@H](O)[C@H]4O)O[C@H]3n3cnc4c(N)ncnc43)O[C@H]2n2cnc3c(N)ncnc32)[C@@H](O)[C@H]1O,EC50,E6SM,70 µg/mL
CCc1cn([C@H]2C[C@H](O)[C@@H](CO)O2)c(=O)[nH]c1=O,EC50,BSC-1,27 µg/mL
CO[C@H]1/C=C/O[C@@]2(C)Oc3c(C)c(O)c4c(O)c(c(/C=N/NC(=O)CN5CCN(c6ccc(C)cc6)CC5)c(O)c4c3C2=O)NC(=O)/C(C)=C\C=C\[C@H](C)[C@H](O)[C@@H](C)[C@@H](O)[C@@H](C)[C@H](OC(C)=O)[C@@H]1C,EC50,L929,>50 µg/mL
Cc1cn([C@@H]2O[C@@H](CO)[C@H](O)[C@H]2O)c(=O)[nH]c1=O,EC50,VERO B,>1000 µM
CC(=O)Nc1nc2c(CC(O)CO)ncn2c(=O)[nH]1,EC50,PRK,>200 µg/mL
Nc1nc(Cl)c2ncn([C@H]3CO[C@@H](CO)C3)c2n1,EC50,E6SM,300 µg/mL
O=Cc1cn([C@H]2C[C@H](O)[C@@H](CO)O2)c(=O)[nH]c1=O,EC50,PRK,0.2 µg/mL
CCn1nc(CC(=O)N/N=C/c2ccco2)nc1C,MIC,,>400 µg/mL
CCc1ccc(N2CCN(CC(=O)N/N=C/c3c4c(O)c5c(O)c(C)c6c(c5c3O)C(=O)[C@@](C)(O/C=C/[C@H](OC)[C@@H](C)[C@@H](OC(C)=O)[C@H](C)[C@H](O)[C@H](C)[C@@H](O)[C@@H](C)/C=C/C=C(/C)C(=O)N4)O6)CC2)cc1,EC50,L929,>50 µg/mL
OC[C@H]1O[C@H](c2cc(Cl)c(F)cc2F)C[C@@H]1O,EC50,E6SM,>400 µg/mL
Nc1nc2c(ncn2C[C@@H](CO)OCP(=O)(O)O)c(=O)[nH]1,EC50,E6SM,0.41 µM
OC[C@H]1O[C@H](c2cc(F)c(F)cc2F)C[C@@H]1O,EC50,E6SM,>400 µg/mL
O=C(C1CCCCC1)N(O)c1ccc(Cl)cc1,EC50,E6SM,>80 µg/mL
Nc1nc(N)c2ncn(C[C@H](CO)OCP(=O)(O)O)c2n1,EC50,E6SM,63 µM
Nc1ncnc2c1ncn2[C@@H]1C=C(CCl)[C@@H](O)[C@H]1O,EC50,PRK,0.7 µg/mL
Nc1ncnc2c1ncn2[C@@H]1O[C@H](COP(=O)([O-])OP(=O)([O-])OC[C@@H]2OC(O)[C@H](O)[C@H](O)[C@H]2O)[C@@H](O)[C@H]1O,EC50,E6SM,40 µg/mL
C=CCc1ncn2c(=O)[nH]c(NC(C)=O)nc12,EC50,PRK,>200 µg/mL
CN(C)Cc1cn([C@H]2C[C@H](O)[C@@H](CO)O2)c(=O)[nH]c1=O,EC50,HSF,>200 µg/mL
O=c1[nH]c(=O)n([C@H]2C[C@H](O)[C@@H](CO)O2)cc1I,EC50,E6SM,0.1 µg/mL
Nc1ncnc2c1ncn2C[C@H](CF)OCP(=O)(O)O,EC50,E6SM,≥1200 µM
CCCc1cn([C@H]2C[C@H](O)[C@@H](COP(=O)(O)O)O2)c(=O)[nH]c1=O,EC50,HSF,>797 µg/mL
O=c1[nH]c(=O)n([C@H]2C[C@H](O)[C@@H](CO)O2)cc1I,EC50,PRK,0.2 µg/mL
CO[C@H]1/C=C/O[C@@]2(C)Oc3c(C)c(O)c4c(O)c(c(/C=N/NC(=O)CN5CCN(c6ccc(C(C)C)cc6)CC5)c(O)c4c3C2=O)NC(=O)/C(C)=C\C=C\[C@H](C)[C@H](O)[C@@H](C)[C@@H](O)[C@@H](C)[C@H](OC(C)=O)[C@@H]1C,EC50,L929,>50 µg/mL

Again, the opening 5 rows:

structure | read-out | cell line | value
Nc1ncnc2c1ncn2[C@@H]1C=C(CO)[C@@H](O)[C@H]1O | EC50 | ESM | 0.2 µg/mL
OC[C@H]1O[C@@H](c2cc(C(F)(F)F)c(F)cc2F)C[C@@H]1O | EC50 | E6SM | >400 µg/mL
CO[C@H]1/C=C/O[C@@]2(C)Oc3c(C)c(O)c4c(O)c(c(/C=N/NC(=O)CN5CCN(c6ccc([N+](=O)[O-])cc6)CC5)c(O)c4c3C2=O)NC(=O)/C(C)=C\C=C\[C@H](C)[C@H](O)[C@@H](C)[C@@H](O)[C@@H](C)[C@H](OC(C)=O)[C@@H]1C | EC50 | L929 | >50 µg/mL
OC[C@H]1O[C@@H](c2ccc(F)cc2F)C[C@@H]1O | EC50 | E6SM | >400 µg/mL
CC1(C)[C@@H](CCO)C[C@H]1n1cnc2c(N)nc(N)nc21 | EC50 | E6SM | 200 µg/mL

Lines come from different laboratories, so protocols vary. An empty or dashed field is not shown.